29 molecules from PubChem BioAssay AID1259415 (National Center for Advancing Translational Sciences (NCATS), 2018) can be followed below.

This is a selection; strong and weak results do not stand in their true shares. Inconclusive results are not listed. The source made the active and inactive calls. No stated cut-off is given here; in the data, active means activity change below about -60%; inconclusive means no clear call, values can overlap the other calls; inactive means above about -39%.
On the % scale 0 is the no-effect control and ±100 the full control effect.

This test is described as follows: qHTS Assay for inhibitors of the human cytomegalovirus (HCMV). As to conditions: HFF cells, HCMV-luciferase reporter, 72 h; at 57.5 µM; stronger effect = lower value. The method in brief: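 Screen run at 2 compound doses on HFFs infected with reporter HCMV, MOI 1 PFU/cell. Luciferase activity from cell lysates at 72 h post infection gave inhibition relative to buffer-only and Salinomycin wells.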
A general note: qHTS replaces the single test concentration by a dilution series.
For `CC1(CBr)Cn2c(nc3ccccc3c2=O)S1` (centres undefined), the activity change, negative = inhibition is inactive: 28.8%.
Consider `O=P1(Nc2ccccn2)COc2ccccc2OC1`, for which the activity change, negative = inhibition was inactive: 10.9%.
On to `CCC1=CC2Cc3nc4ccc(Cl)cc4c(N)c3C(C1)C2` (centres undefined), for which the activity change, negative = inhibition was inactive: -4.99%.
`CCOP(=O)(NC(=NC(C)c1ccccc1)NC(C)c1ccccc1)OCC` (centres undefined): the activity change, negative = inhibition was inactive: 4.23%.
As for `CN(CCCl)Cc1cc(Cl)c(NC2=NCCN2)c(Cl)c1`, the activity change, negative = inhibition is inactive: -7.77%.
As to `CCOP(=O)(Nc1ccc(C)cn1)OCC`, the activity change, negative = inhibition was inactive: 25%.
In the case of `O=P1(N(CCCl)CCCl)NCCC(C(F)(F)F)O1` (centres undefined), the activity change, negative = inhibition is inactive: 7.95%.
In the case of `Clc1n[nH]nc1-c1nn[nH][15n]1`, the activity change, negative = inhibition was inactive: 29.5%.
Then `CC(C)(C)C(=O)NC(Sc1ncccn1)C(Cl)(Cl)Cl` (centres undefined), with inactive: -21.8%; and `Cc1ccc(NCCc2c([N+](=O)[O-])cc([N+](=O)[O-])cc2[N+](=O)[O-])cc1`, with inactive: -28.1%; and `CCCOP(=S)(Nc1nc(N)cc(=O)[nH]1)OCCC`, with inactive: -3.26%.
In the case of `COc1cc(C2NCCC3(OCCO3)C2(C)C)cc(OC)c1OC` (centres undefined) it was active: -64.8%; in that of `CCOP(=O)(Nc1cccc2ccccc12)OCC`, inactive: -14.4%; in that of `O=C(OC1CN2CCC1CC2)c1ccc(Cl)cc1` (centres undefined), inactive: 15.5%.
Regarding `COc1cc(C(=O)NCC2(N3CCOCC3)CCCCC2)cc(Cl)c1OC(C)C`, the activity change, negative = inhibition is inactive: -19.3%.
Consider `O=[As](O)(O)c1cccnc1`, for which the activity change, negative = inhibition was inactive: -21.9%.
In the case of `CS(=O)(=O)c1ccc(Cl)c(NC(=O)COC(=O)C(O)(c2ccccc2)c2ccccc2)c1`, the activity change, negative = inhibition is inactive: 0.954%.
`Cc1cccc(OCC(=O)OC2CN3CCC2CC3)c1` (centres undefined): the activity change, negative = inhibition is inactive: 25.8%.
Take `NC(=O)Nc1ccc([As](=O)(O)O)cc1`: the activity change, negative = inhibition was inactive: -1.37%.
Take `N#CCCN(C(=O)COC(=O)C(O)(c1ccccc1)c1ccccc1)c1ccc(F)cc1`: the activity change, negative = inhibition is inactive: -16.3%.
As to `CCOP1(=S)c2c(C)nn(CCC#N)c2N=C(c2ccc(F)cc2)N1C` (centres undefined), the activity change, negative = inhibition is inactive: -25.7%.
`CN(C(=O)Cc1ccccc1)[C@@H]1CC[C@]2(CCCO2)C[C@H]1N1CCCC1`: the activity change, negative = inhibition was inactive: -34.5%.
Regarding `CN(C)C(=O)c1cc([N+](=O)[O-])cc2c1-c1c(cc([N+](=O)[O-])cc1[N+](=O)[O-])C2=O`, the activity change, negative = inhibition was active: -109%.
For `O=[N+]([O-])c1ccc2c(c1)nnn2O`, the activity change, negative = inhibition is inactive: -8.67%.
With `CN(C(=O)Cc1ccc(Cl)c(Cl)c1)[C@H]1CC[C@@]2(CCCO2)C[C@@H]1N1CCCC1`, the activity change, negative = inhibition was inactive: -35.6%.
Consider `CCOP1(=S)c2c(C)nn(CCC#N)c2N=C(c2ccccc2F)N1C` (centres undefined), for which the activity change, negative = inhibition was inactive: -18.7%.
In the case of `O=P(Nc1nccs1)(Oc1ccccc1)Oc1ccccc1` it was inactive: -28.8%; in that of `Nc1ccccc1[As](=O)(O)c1ccccc1`, inactive: -26.4%.
Turning to `O=C(O)COc1ccc([As](=O)(O)O)cc1[N+](=O)[O-]`, the activity change, negative = inhibition was inactive: -3.61%.
